# Results deposited as PubChem BioAssay AID504761 (Drosophila RNAi Screening Center, 2011)
# Assay: 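Insect host genes that dengue virus relies on to spread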 (primary screen)
# Cell system: D.Mel-2 cells from Drosophila
# Knock-down reagent: long dsRNA against Drosophila genes
# Conditions: infection with dengue virus type 2; dose and infection time not stated
# Detection: 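Cells stained for dengue envelope protein and imaged; percent of infected cells per well on duplicate plates, ranked by infection, with stained nuclei counted for cell number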
# Scale: infection score: higher = more virus-infected cells; cell count: higher = more cells in the well
# Call rule: 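Very low infection ranking in both replicate wells (chance probability at most 0.065), then a retest showing infection dropped 1.5-fold or more at p below 0.05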
# Meaning of the calls: active = confirmed: knock-down lowers infection; inactive = not picked or not confirmed
# The screen tested about 22,000 reagents; below is an unselected part of those that have a named target and a result. Over the whole deposit, 116 (0.52%) are marked active. 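Calls depend on retest data that are not deposited; infection was ranked per plate without normalising between plates; the unit of the infection score is not given.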 Raw values vary from plate to plate and are shown uncorrected. Further read-outs or replicates are left out here. The record does not give: the amount of reagent, the time to read-out.
gene,amplicon,"infection score, replicate 1","infection score, replicate 2","cell count, replicate 1",activity call
GstD1 (Glutathione S transferase D1),DRSC16683,11.6,11.6,6302,inactive
GstD1 (Glutathione S transferase D1),DRSC27603,5.34,2.33,5595,inactive
Gbs-76A (Glycogen binding subunit 76A),DRSC11081,14.8,6.97,5776,inactive
ND-24 (NADH dehydrogenase (ubiquinone) 24 kDa subunit),DRSC19960,1.3,1.83,6366,inactive
CG13501,DRSC04146,6.65,4.9,7048,inactive
VhaAC39-2 (Vacuolar H[+] ATPase AC39 subunit 2),DRSC15609,8.6,6.37,6012,inactive
Tengl1 (Testis EndoG-Like 1),DRSC00481,2.87,3.03,6134,inactive
CG42240,DRSC18097,0.95,1.97,6664,inactive
CG42240,DRSC30017,27.9,5.18,5745,inactive
CG13049,DRSC09930,1.45,2.06,5529,inactive
CG13049,DRSC24850,2.68,10.7,6504,inactive
CR33328 (retired record),DRSC22954,1.34,0.69,6735,inactive
CR33328 (retired record),DRSC27200,15.4,10.6,6539,inactive
CG33269,DRSC10585,2.76,8.01,5372,inactive
CG10171,DRSC09711,5.15,6.97,6621,inactive
CG10171,DRSC26279,1.76,3.24,6529,inactive
CG12990,DRSC19510,10.9,3.71,6759,inactive
CG10669,DRSC14261,6.72,8.53,5881,inactive
CG33060,DRSC09939,2.59,4.75,5786,inactive
CG34283,DRSC13313,3.9,1.63,6720,inactive
alphaTub67C (alpha-Tubulin at 67C),DRSC11321,1.22,2.86,5504,inactive
alphaTub67C (alpha-Tubulin at 67C),DRSC25162,10.1,19.8,4019,inactive
Sirt1 (Sirtuin 1),DRSC03435,15.2,1.72,6160,inactive
Gld (Glucose dehydrogenase),DRSC12595,3.02,6.01,6685,inactive
Ankle2,DRSC20105,7.74,8.41,6486,inactive
Ankle2,DRSC20106,6.54,7.04,6410,inactive
RhoGDI,DRSC10919,6.99,5.33,3762,inactive
CG12111,DRSC17808,5.25,10.4,6455,inactive
CG12111,DRSC26511,1.94,0.61,5993,inactive
to (takeout),DRSC17086,6.87,1.51,6448,inactive
to (takeout),DRSC29075,14.3,11.1,5475,inactive
CG12702,DRSC19487,10.2,0.1,4696,inactive
CG12702,DRSC27645,16.8,2.59,6096,inactive
"E(spl)mbeta-HLH (Enhancer of split mbeta, helix-loop-helix)",DRSC16697,11.1,1.32,6630,inactive
Gr57a (Gustatory receptor 57a),DRSC06401,5.35,2.29,6319,inactive
CG18233,DRSC10308,1.97,3.12,6495,inactive
CG14034,DRSC02359,3.03,5.97,6311,inactive
fid (fire dancer),DRSC14885,2.7,2.42,6325,inactive
fid (fire dancer),DRSC16464,5.63,1.21,5772,inactive
fid (fire dancer),DRSC23529,1.65,1.71,6360,inactive
fid (fire dancer),DRSC25230,2.85,11.2,6853,inactive
l(2)41Ab (lethal (2) 41Ab),DRSC21007,3.24,8.56,6564,inactive
CG13643,DRSC14641,19.9,8.25,5432,inactive
CG13643,DRSC14642,3.52,2.79,5289,inactive
CG13643,DRSC28349,5.48,13.2,6244,inactive
CG14966,DRSC08425,0.49,2.96,6268,inactive
Psc (Posterior sex combs),DRSC07518,27,16.4,5270,inactive
Psc (Posterior sex combs),DRSC29016,,15.7,378,inactive
CG6550,DRSC07001,2.61,3.55,6846,inactive
CG11313,DRSC14295,1.15,2.34,6170,inactive
LamC (Lamin C),DRSC07453,29.2,13.5,5539,inactive
LamC (Lamin C),DRSC25517,8.7,3.66,5541,inactive
Dpy-30L1 (Dpy-30-like 1),DRSC02959,2.9,3.26,6406,inactive
Dpy-30L1 (Dpy-30-like 1),DRSC25189,14.2,7.59,5446,inactive
dimm (dimmed),DRSC03100,,,415,inactive
CG8728,DRSC07251,25.6,14.9,4528,inactive
CG15385,DRSC00399,7.13,3.21,6281,inactive
Akap200 (A kinase anchor protein 200),DRSC01864,7.45,8.74,6177,inactive
